Measured values from article PMC5109037, “Harnessing Nature’s Diversity: Discovering organophosphate bioscavenger characteristics among low molecular weight proteins” (2016).

Chains of the proteins cited; added tags and fusions are not shown. Residues count along the entry.
UniProt Q8DTF4, 1-275 limits assumed: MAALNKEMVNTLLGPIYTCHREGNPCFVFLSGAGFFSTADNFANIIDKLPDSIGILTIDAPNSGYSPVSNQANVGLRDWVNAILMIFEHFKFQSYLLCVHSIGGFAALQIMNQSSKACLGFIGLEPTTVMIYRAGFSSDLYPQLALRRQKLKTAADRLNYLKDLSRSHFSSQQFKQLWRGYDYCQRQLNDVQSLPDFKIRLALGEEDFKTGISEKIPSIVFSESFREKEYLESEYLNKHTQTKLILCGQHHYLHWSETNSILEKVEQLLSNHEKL
UniProt Q8DTF4, 1-275 S101A limits assumed: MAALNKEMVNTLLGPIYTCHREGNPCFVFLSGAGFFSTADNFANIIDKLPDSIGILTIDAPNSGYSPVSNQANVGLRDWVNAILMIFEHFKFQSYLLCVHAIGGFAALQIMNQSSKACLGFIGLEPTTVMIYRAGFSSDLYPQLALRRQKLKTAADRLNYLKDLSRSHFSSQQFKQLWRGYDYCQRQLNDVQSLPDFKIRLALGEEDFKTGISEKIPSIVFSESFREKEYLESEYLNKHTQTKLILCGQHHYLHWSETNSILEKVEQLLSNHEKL
UniProt P9WQP3, 44-338 limits assumed: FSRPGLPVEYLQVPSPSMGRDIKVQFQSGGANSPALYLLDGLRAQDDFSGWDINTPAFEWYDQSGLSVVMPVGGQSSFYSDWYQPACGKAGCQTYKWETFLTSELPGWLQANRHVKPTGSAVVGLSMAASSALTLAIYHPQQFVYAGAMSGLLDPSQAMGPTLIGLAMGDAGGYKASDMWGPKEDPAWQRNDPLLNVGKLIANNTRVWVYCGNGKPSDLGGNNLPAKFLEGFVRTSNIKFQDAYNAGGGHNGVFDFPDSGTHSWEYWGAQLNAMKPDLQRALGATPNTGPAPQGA
UniProt P9WMM5, whole entry: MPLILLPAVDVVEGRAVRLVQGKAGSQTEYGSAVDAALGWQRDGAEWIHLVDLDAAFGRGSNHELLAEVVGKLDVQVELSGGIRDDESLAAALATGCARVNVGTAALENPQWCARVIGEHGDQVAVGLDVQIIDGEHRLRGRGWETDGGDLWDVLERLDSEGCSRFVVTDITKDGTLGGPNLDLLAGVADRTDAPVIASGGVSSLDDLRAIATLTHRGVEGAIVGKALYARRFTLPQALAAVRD

Columns and labels:
Experiment in all cases: Fluorescence polarization with 200 nM TFP-probe titrated with protein until saturation, fitted to a one site-specific binding model (with Hill slope for Smu. 1393c).
Smu. 1393c = Smu. 1393c (Streptococcus mutans, UniProt Q8DTF4)
Protocol: (§1) To quantify OP binding and check for non-covalent interactions, we use fluorescent polarization experiments utilizing the TFP-probe as substrate (Fig. 3b and Supplementarty Fig. 5). We find that Smu. 1393c has low micromolar binding (Kd = 4.17 ± 0.08 μM). Though candidates’ antigen 85-A and phosphoribosyl isomerase show no covalent binding, there are non-covalent binding interactions with Kd’s of 20.9 ± 1.6 μM and 120 ± 10 μM, respectively. All three candidates display binding interactions that validate the predictions from our computational workflow.
(§2) We perform fluorescence polarization using the TFP-probe as substrate. We dilute the TFP-probe to a 200 nM concentration and titrate the given protein measuring the change in polarization until saturation. We fit the obtained data first to a one site-specific binding model, [drawing 1] , and then to a one site-specific binding model with Hill slope, [drawing 2] . There is no substantial difference between the fits for phosphoribosyl isomerase, antigen 85-A, and Smu. 1393c S99A. We find that the one site-specific binding model with Hill coefficient produces a better fit for Smu. 1393c (Hill coefficient = 2.0 ± 0.06).

Smu. 1393c S99A = Smu. 1393c S99A (Streptococcus mutans, UniProt Q8DTF4, S101A)
Protocol: as §1, §2

antigen 85-A = antigen 85-A (Mycobacterium tuberculosis, UniProt P9WQP3)
Protocol: as §1, §2

phosphoribosyl isomerase = phosphoribosyl isomerase (Mycobacterium tuberculosis, UniProt P9WMM5)
Protocol: as §1, §2

With “ActiveX Tamra fluorophosphonate serine hydrolase probe” the Kd (Smu. 1393c) was 4.17 µM, the Kd (Smu. 1393c S99A) was > 300 µM and the Kd (antigen 85-A) was 20.9 µM. It also gave a Kd (phosphoribosyl isomerase) of 120 µM.
